The results in this text go back to patent US20240368664A1, “LIVE YEAST BIOSENSORS AND METHODS OF USE THEREOF” (priority 2021, published 2024).

SMILES strings stand for the structures.

One assay concerns CpSte2. Put plainly: Native CpSte2 dose-response with Ebola sGP target peptide.
The next assay relates to mutant SsSte2. The assay can be described thus: Directed-evolution SsSte2 mutant hits, dose-response with nucleocapsid intermediate and epitope peptides, mCherry. Format: cell-based, Scheffersomyces stipites. The note with it: best hit after the second round of directed evolution.

The term EC50 denotes the concentration needed to bring the measured effect to its halfway point. Read a high EC50 as a less potent agent.

As to `CC(C)[C@H](N)C(=O)N[C@@H](CC(N)=O)C(=O)N[C@@H](C)C(=O)N[C@H](C(=O)N[C@@H](CCC(=O)O)C(=O)N[C@@H](CC(=O)O)C(=O)N1CCC[C@H]1C(=O)N[C@@H](CO)C(=O)N[C@@H](CO)C(=O)NCC(=O)N[C@@H](Cc1ccc(O)cc1)C(=O)N[C@@H](Cc1ccc(O)cc1)C(=O)O)[C@@H](C)O`, the “fold less compared to the cognate peptide” value in the assay on CpSte2 is 1000 fold. Besides, in the assay on CpSte2 (FIG. 20B), the “fold higher concentration needed to induce expression levels equivalent to the native peptide” value amounted to 10 fold. This compound also registered a 50% effective concentration (EC50) in the assay with CpSte2 (FIG. 20C) of 86 µM.
As for `CC(C)[C@H](NC(=O)CNC(=O)[C@H](Cc1ccc(O)cc1)NC(=O)[C@H](CCC(N)=O)NC(=O)[C@@H]1CCCN1C(=O)[C@H](Cc1c[nH]c2ccccc12)NC(=O)[C@H](Cc1c[nH]cn1)NC(=O)[C@@H](N)Cc1c[nH]c2ccccc12)C(=O)N[C@@H](Cc1ccccc1)C(=O)N[C@@H](C)C(=O)N1CCC[C@H]1C(=O)NCC(=O)O`, in the assay with mutant SsSte2, the concentration for a half-maximal effect (EC50) came to 3 µM and the “fold increase in signal intensity” value came to 3.4±0.3 fold.
